# Zika virus NS2B-NS3: effect of single substitutions on growth in cell culture

The measurements come from Ni et al. 2025 (doi:10.1038/s41467-025-63602-z).

The scanned region of Zika virus MR766 is shown below (positions 1-308): NS2B is 2-131, NS3 begins at position 132.
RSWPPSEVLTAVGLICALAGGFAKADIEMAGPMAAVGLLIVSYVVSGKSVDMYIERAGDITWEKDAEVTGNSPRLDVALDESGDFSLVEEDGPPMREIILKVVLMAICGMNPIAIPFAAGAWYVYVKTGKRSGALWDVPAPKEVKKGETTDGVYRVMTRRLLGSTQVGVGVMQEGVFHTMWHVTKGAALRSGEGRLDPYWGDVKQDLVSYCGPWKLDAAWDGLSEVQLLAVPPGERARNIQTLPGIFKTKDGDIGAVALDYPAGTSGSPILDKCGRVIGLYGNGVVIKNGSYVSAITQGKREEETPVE

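Mutant virus pools were grown in human Huh-7.5 cells. Deep sequencing gave the change in frequency of each mutant relative to wild type, averaged over three replicate libraries (two for positions 207-308). The aim was to find sites where inhibitor-binding pockets cannot change.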

Scale: log2 effect, wild type = 0; the lower, the more harmful to the virus. A change reads original residue, position, new residue. This list holds changes to tyrosine only. The authors count -1 or higher as tolerated. Position 1 is the last residue of NS2A.

* A258Y -> -5.53
* L259Y -> -5.20
* D260Y -> -4.86
* P262Y -> -4.55
* A263Y -> -5.58
* G264Y -> -4.01
* T265Y -> -3.03
* S266Y -> -5.51
* G267Y -> -5.41
* S268Y -> -5.75
* P269Y -> -5.00
* I270Y -> -3.16
* L271Y -> -4.43
* D272Y -> -3.84
* K273Y -> -2.74
* C274Y -> -2.08
* G275Y -> -3.48
* R276Y -> -5.43
* V277Y -> -4.23
* I278Y -> -4.61
* G279Y -> -4.12
* L280Y -> -5.37
* G282Y -> -4.18
* N283Y -> -5.97
* G284Y -> -4.82
* V285Y -> -4.62
* V286Y -> -4.59
* I287Y -> 0.24
* K288Y -> -4.86
* N289Y -> -5.97
* G290Y -> -4.91
* S291Y -> -4.57
* V293Y -> -4.14
* S294Y -> -4.51
* A295Y -> -4.25
* I296Y -> -4.36
* T297Y -> -4.57
* Q298Y -> -4.58
* G299Y -> -4.94
* K300Y -> -5.47
* R301Y -> -3.26
* E302Y -> 0.61
* E303Y -> -1.24
* E304Y -> -1.47
* T305Y -> 0.74
* P306Y -> -1.20
* V307Y -> -0.87
* E308Y -> -0.35

The last 5 entries again:

* E304Y -> -1.47
* T305Y -> 0.74
* P306Y -> -1.20
* V307Y -> -0.87
* E308Y -> -0.35

The region was split into three libraries (1-103, 104-206, 207-308). Six mutants with high scores were retested singly and none clearly outgrew wild type, so positive values are not proof of better growth.